Anti-infective test results gathered from many reports (values: NIAID ChemDB through PubChem).

Common to all: whole-cell or culture tests; agent: Candida albicans; endpoint: MIC

Conditions beyond the fields shown may differ between rows.

compound	strain	value
C[C@H](n1nnnc1CCN1CCN(c2ccc([N+](=O)[O-])cc2)CC1)[C@](O)(Cn1cncn1)c1ccc(F)cc1F	-	2 µg/mL
Cc1ccc(CON2C(N)=NC(N)=NC23CCC(C)CC3)c2ccccc12	-	62.5 µg/mL
O=C(NN1C(=O)/C(=C\c2ccccc2)SC1c1cccc(Br)c1)c1ccc(-c2ccccc2)cc1	MTCC 8184	3.12 µg/mL
CCCCCCCOC[N+](C)(C)Cc1cc(N=Nc2ccc(Cl)cc2)ccc1O	-	136 µM
CCCCCOc1ccc(-c2ccc(-c3ccc(C(=O)N[C@H]4C[C@@H](O)[C@@H](O)NC(=O)[C@@H]5[C@@H](O)[C@@H](C)CN5C(=O)[C@H]([C@H](C)O)NC(=O)[C@H]([C@H](O)[C@@H](O)c5ccc(O)cc5)NC(=O)[C@@H]5C[C@@H](O)CN5C(=O)[C@H]([C@H](C)O)NC4=O)cc3)cc2)cc1	Y180	0.04 µg/mL
CCCCOc1ccccc1N1CCN(CCc2nnnn2C(C)C(O)(Cn2cncn2)c2ccc(F)cc2F)CC1	V-01-191A-261 (resistant)	1 µg/mL
Cc1nc(N)nc(N)c1C#CC(C)(C)C	-	0.4 µg/mL
Cc1ccc(N=Nc2ccc(O)c(C[N+](C)(C)COCCC3CCCCC3)c2)cc1	-	139 µM
Cc1ccc(SC[C@@H]2C[C@](c3ccc(F)cc3)(n3ccnc3)N(C)O2)cc1	ATCC10259	7 µg/mL
CCc1nc(N)nc(N)c1-c1ccc(Cl)cc1	-	50 µg/mL
O=C(NN1C(=O)/C(=C\c2cccc([N+](=O)[O-])c2)SC1c1ccccc1)c1ccc(-c2ccccc2)cc1	MTCC 8184	3.12 µg/mL
COC(=O)C(C#N)C1C(=O)C(C)=C(C)C(=O)C1Sc1ccc(C)c(C)c1	Berkout KCCM 50235	50 µg/mL
NC1=NC2(CCCCC2)N(OCCCCCCCCc2ccccc2)C(N)=N1	-	30 µg/mL
O=C(NN1C(=O)/C(=C\c2cccc(Br)c2)SC1c1ccccc1)c1ccc(-c2ccccc2)cc1	MTCC 8184	3.12 µg/mL
COC(=O)C(C#N)C1C(=O)C(C)=C(C)C(=O)C1Sc1cccc(F)c1	Berkout KCCM 50235	50 µg/mL
CC1(C)N=C(N)N=C(N)N1OCc1cccc2ccccc12	-	>240 µg/mL
O=[N+]([O-])c1ccc(N2CCN(CCc3nnn(CC(O)(Cn4cncn4)c4ccc(F)cc4F)n3)CC2)cc1	V-01-191A-261 (resistant)	8 µg/mL
CC1CCC2(CC1)N=C(N)N=C(N)N2OCc1cccc2ccccc12	-	125 µg/mL
CC1=C(C)C(=O)C(Cl)=C(Cl)C1=O	Berkout KCCM 50235	50 µg/mL
C[C@H]1[C@H](O)[C@@H](C)/C=C/C=C/C=C/C=C/C=C/C=C/C=C/[C@H](O[C@@H]2O[C@H](C)[C@@H](O)[C@H](N)[C@@H]2O)C[C@@H]2O[C@](O)(C[C@@H](O)C[C@@H](O)CC[C@H](O)[C@@H](O)C[C@@H](O)CC(=O)O[C@H]1C)C[C@H](O)[C@H]2C(=O)O	ATCC 10231	10 µg/mL
O=C1N(c2ccc([N+](=O)[O-])cc2)C(c2cccs2)C1(c1ccccc1)c1ccccc1	-	100 µg/mL
CCCCCCCCON1C(N)=NC(N)=NC1(C)C	-	>60 µg/mL
Clc1ccccc1C(c1ccccc1)(c1ccccc1)n1ccnc1	-	0.5 µM
CCC(C)CC(C)CCCCCCCCC(=O)N[C@H]1C[C@@H](O)[C@H](NCCN)NC(=O)[C@@H]2[C@@H](O)CCN2C(=O)[C@H]([C@H](O)CCN)NC(=O)[C@H]([C@H](O)[C@@H](O)c2ccc(O)cc2)NC(=O)[C@@H]2C[C@@H](O)CN2C(=O)[C@H]([C@@H](C)O)NC1=O	OY-31.5	0.03 µg/mL
CCC(C)C#Cc1c(C)nc(N)nc1N	-	0.4 µg/mL
CCCCCOC[N+](C)(C)Cc1cc(N=Nc2ccc(C)cc2)ccc1O	-	152 µM
CCCCCCOc1ccccc1CON1C(N)=NC(N)=NC1(C)C	-	>240 µg/mL
CCCCCCCCCCCOC[N+](C)(C)Cc1cc(N=Nc2ccc(Cl)cc2)ccc1O	-	490 µM
COc1cc(O)c2c(c1)C(=O)c1c(cc3c(c1O)-c1c(cc(C)c(C(=O)NCC(=O)O)c1O)[C@H](O[C@@H]1O[C@H](C)[C@H](N)[C@H](O[C@@H]4OC[C@@H](O)[C@H](O)[C@H]4O)[C@H]1O)[C@H]3O)C2=O	A9540	6.3 µg/mL
C[N+](C)(COC1CCCC1)Cc1cc(N=Nc2ccc(Cl)cc2)ccc1O	-	146 µM
Clc1ccccc1C(c1ccccc1)(c1ccccc1)n1ccnc1	ATCC 10231	5 µg/mL
Cc1ccc(SC[C@@H]2C[C@](c3ccc(Cl)cc3)(n3ccnc3)N(C)O2)cc1	ATCC10259	7 µg/mL
CCC(C)n1ncn(-c2ccc(N3CCN(c4ccc(OC[C@H]5CO[C@](Cn6cncn6)(c6ccc(Cl)cc6Cl)O5)cc4)CC3)cc2)c1=O	ATCC 10231	5 µg/mL
COc1ccc(N2C(=O)C(c3ccccc3)(c3ccccc3)C2c2cccs2)cc1	-	100 µg/mL
COc1ccc(SC[C@@H]2C[C@](c3cccc(OC)c3)(n3ccnc3)N(C)O2)cc1	ATCC10259	7 µg/mL
Cc1c(Sc2ccccc2)[n+](=O)c2cc(C(F)(F)F)ccc2n1[O-]	Clinical isolate 20	15.6 µg/mL
CCCCCCCOC[N+](C)(C)Cc1cc(N=Nc2ccc(C)cc2)ccc1O	-	288 µM
Cc1ccc(N2C(=O)C(c3ccc(C)cc3)(c3ccc(C)cc3)C2c2cccs2)cc1	-	100 µg/mL
Cc1nc(N)nc(N)c1C#CC1CCCC1	-	0.2 µg/mL
O=[n+]1c(Sc2ccccc2)c(CBr)n([O-])c2ccccc21	Clinical isolate 17	15.6 µg/mL
C[C@H](n1nnc(CCN2CCN(c3ccccn3)CC2)n1)[C@](O)(Cn1cncn1)c1ccc(F)cc1F	V-01-191A-261 (resistant)	8 µg/mL
CN(CCCC#CC(C)(C)C)c1cccc2c1CCC(=O)N2	Clinical isolate 14	31.25 µg/mL
Cc1ccc(C2(c3ccc(C)cc3)C(=O)N(c3ccc(Cl)cc3)C2c2cccs2)cc1	-	100 µg/mL
Cc1c(S(=O)(=O)c2ccccc2)[n+](=O)c2cc(Cl)ccc2n1[O-]	Clinical isolate 24	31.25 µg/mL
NC1=NC2(CCCCC2)N(OCCCCCCCCCCc2ccccc2)C(N)=N1	-	60 µg/mL
O=C(NN1C(=O)/C(=C\c2ccccc2)SC1c1ccccc1)c1ccc(-c2ccccc2)cc1	MTCC 8184	3.12 µg/mL
COc1ccccc1N1CCN(CCc2nnn(C(C)C(O)(Cn3cncn3)c3ccc(F)cc3F)n2)CC1	-	8 µg/mL
CN(C)C(=O)c1ccc2nc(NC(=O)[C@@H]3CCC[C@H](NCc4ccc5ccccc5c4)C3)sc2c1	-	0.09 µg/mL
COc1ccc(C(c2ccccc2)(c2ccccc2)n2ccnc2)cc1	-	1 µM
Cc1ccc(N=Nc2ccc(O)c(C[N+](C)(C)COC3CCCC3)c2)cc1	-	309 µM
Cc1ccc(C2(c3ccc(C)cc3)C(=O)N(c3ccccc3)C2c2cccs2)cc1	-	100 µg/mL
COc1ccccc1C1N=C(N)N=C(N)N1OCc1cccc2ccccc12	-	>240 µg/mL
CCCCOC[N+](C)(C)Cc1cc(N=Nc2ccc(C)cc2)ccc1O	-	319 µM

A second listing of 4 rows from above:

{"compound": "CC1CCC2(CC1)N=C(N)N=C(N)N2OCc1cccc2ccccc12", "value": "125 µg/mL"}
{"compound": "Cc1ccc(SC[C@@H]2C[C@](c3ccc(F)cc3)(n3ccnc3)N(C)O2)cc1", "strain": "ATCC10259", "value": "7 µg/mL"}
{"compound": "Cc1ccc(N2C(=O)C(c3ccc(C)cc3)(c3ccc(C)cc3)C2c2cccs2)cc1", "value": "100 µg/mL"}
{"compound": "CCCCCCOc1ccccc1CON1C(N)=NC(N)=NC1(C)C", "value": ">240 µg/mL"}

An empty or dashed field is not shown.